# Primary screen of a compound library

From ChEMBL document CHEMBL3988442, “University of Dundee, Small-Polar-MMV Screening Library” (2021).

A: 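Growth of Mycobacterium tuberculosis over 4 days (cholesterol / DPPC medium with tyloxapol); the read-out is not stated. Concentration: 500 µM. The record gives no direction; compounds that gave an IC50 in retests scored well above the rest, so higher reads as more growth inhibition. About 18,000 compounds were tested under these conditions; 5% (about 900) showed 50% or more at least once.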
B: 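Whole-cell growth test on Mycobacterium tuberculosis, read after 3 days in glucose-containing 7H9 medium; the read-out is not stated. Compounds at 500 µM. Higher reads as more growth inhibition (inferred: compounds with an IC50 in retests scored well above the rest). About 18,000 compounds were tested under these conditions; 7.9% (about 1,400) showed 50% or more at least once.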

Values are the deposited “Percent Effect”, in %. The record does not define 0% and 100%; most values in the screen are far below 50% and negative numbers occur (in some assays of this library far below -100). This is part of a subset picked to be rich in strong results. A dash means the value is not listed here; it may have been measured.

For CCOc1ccccc1C(=O)Nc1nnc[nH]1 the result was A: -1.025%.
For Cc1cccc(CCO)c1 the result was A: -9.599%.
For OC1(CN2CCCCC2)CCN(Cc2ncc[nH]2)C1 (centres undefined) the result was B: 24.51%.
For C[C@H](N)CNCc1cc(O)c2cc(F)ccc2n1 the result was B: 9.735%.
For CN(CC(=O)N(C)C)Cc1nc2ccccc2o1 the result was B: 35.56%.
For NC1CNCCNC1 the result was A: 3.655%.
For NC(=O)CSc1nc(-c2ccc(Br)cc2)c[nH]1 the result was A: 109.9%; B: 87.97%.
For CC(=O)N1CCc2cc(C(=O)C(C)O)ccc21 (centres undefined) the result was B: 2.342%.
For CC(Nc1ccc(F)cc1)C(=O)N1CCCC1 (centres undefined) the result was A: 51.75%; B: 59.62%.
For CNC(=O)C1CN(c2ccc(F)cn2)CCO1 (centres undefined) the result was B: 22.48%.
For CC(=O)NC1CCN(CC(=O)Nc2ccccc2)CC1 the result was B: 6.734%.
For CN1CCCN(C(=O)c2cc(F)cc(F)c2)CC1 the result was B: 8.232%.
For O=C(c1cc(C2CC2)on1)N1CCN2CCC1CC2 the result was B: -6.955%.
For FC(F)(F)c1cccnc1NCC1CNCCOC1 (centres undefined) the result was B: 16.31%.
For C[C@H](O)CNC(=O)c1ccc(OCC(F)F)cc1 the result was B: -0.1073%.
For FC(F)Oc1ccc(NCCn2ccnc2)nc1 the result was A: 34.71%; B: 40.37%.
For NCC1CCN(c2ncccn2)CC1 the result was B: 20.32%.
For CCN1CCN(C(=O)Nc2ccccc2)CC1 the result was A: 25.85%.
For Clc1cncc(NCC2CN(C3CC3)CCO2)n1 (centres undefined) the result was B: 52.28%.
For COCC1(C(=O)N[C@@H]2CCOC[C@H]2O)CC1 the result was B: -3.941%.
For Cc1c[nH]c(C(C)NC(=O)c2ccc3[nH]nnc3c2)n1 (centres undefined) the result was A: 5.341%.
For O=C1NCCNC1c1ccccc1 (centres undefined) the result was B: 47.05%.
For Cc1nnc(CN)s1 the result was B: -10.87%.
For CCCS(=O)(=O)NCc1cccc(OCCN(C)C)c1 the result was A: 19.62%.
For NC(CO)c1c(Cl)cccc1Cl (centres undefined) the result was A: 0.02032%.
For CCc1cnc(CCN)s1 the result was B: 48.92%.
For COc1ccccc1NC(=O)CN1CCCC1 the result was A: -3.979%.
For CC(C)Oc1ccc(C(CN)N(C)C)cc1 (centres undefined) the result was A: 49.93%; B: 81.93%.
For Cn1c(Sc2ccc(C#N)cn2)nnc1C1CC1 the result was B: 19.14%.
For Cc1ccsc1CN(C)C(=O)Cn1cccnc1=O the result was B: 18.5%.
For CC(C)Sc1nnc(-c2cccnc2)o1 the result was A: 69.45%; B: 67.65%.
For CCOCC(=O)NC(C)c1c(F)cccc1OC (centres undefined) the result was A: 74.98%; B: 76.1%.
For CC(C)N(CCCNC(=O)c1cnccn1)S(C)(=O)=O the result was A: -0.05398%.
For CN(Cc1ccc(Oc2ccccc2)cc1)C(=O)CN the result was A: 99.1%; B: 96.77%.
For CC1CCC(NC(=O)Cn2cnc(C#N)n2)CC1 (centres undefined) the result was B: 58.03%.
For NC(=O)CN1CCC(C(=O)Nc2ccc(Br)cn2)CC1 the result was B: 18.67%.
For Cc1[nH]c(=O)[nH]c(=O)c1CCC(=O)Nc1ccn(C)n1 the result was B: -7.893%.
For Cc1cccc(C(=O)Nc2nnn(C)n2)c1 the result was A: -4.601%; B: 5.56%.
For CC(C)n1cc(Br)cc1C(=O)NCCCO the result was B: -10.56%.
For COCCS(=O)(=O)NCCCO the result was B: -5.205%.
For Cc1ccc2c(c1)OC(C)CN2S(C)(=O)=O (centres undefined) the result was B: -3.18%.
For NCc1ccncc1OCCC(F)(F)F the result was A: -5.605%.
For O=C(NCCO)NCc1c(F)cc(Br)cc1F the result was A: 3.066%; B: 20.03%.
For CCOc1ccc(CC(=O)N2CCN(CC)CC2)cc1 the result was A: 37.84%; B: 60.46%.

For reference, 3 entries once more:

SMILES,A,B
CN1CCCN(C(=O)c2cc(F)cc(F)c2)CC1,-,8.232%
CNC(=O)C1CN(c2ccc(F)cn2)CCO1 (centres undefined),-,22.48%
NC(=O)CN1CCC(C(=O)Nc2ccc(Br)cn2)CC1,-,18.67%